Pooled drug test results. Numbers come from NIAID ChemDB, via PubChem.

All rows: whole-cell or culture tests; species: HIV-1

ECn: concentration that inhibits the pathogen or its effect by n%.

smiles	read by	setting	measure	cell line	strain or isolate	mutations	result
C/C(=N\NC(=O)CN1c2c(-c3ccccc3)n[nH]c2-c2ccccc2S1(=O)=O)c1ccc2ccccc2c1	RT activity		EC90	PBMC			>100 µM
CC(C)CN(C[C@@H](O)[C@H](Cc1cc(F)cc(F)c1)NC(=O)O[C@H]1C2CO[C@H]3OCC1C3C2)S(=O)(=O)c1ccc2nc(NC3CC3)sc2c1	p24 / luminescence		EC50	MT-4	LAI		0.000017 µM
COc1cnc(-n2nccn2)c2[nH]cc(C(=O)C(=O)N3CCN(C(=O)c4ccccc4)CC3)c12	luciferase		EC50	HeLa			<1 µM
CNc1nc(Nc2ccc(C#N)cc2F)nc(Oc2ccc3ccccc3c2Cl)n1	MTT		EC50	MT-4	IIIB		0.802 µM
Nc1nc(N)n(CCOCP(=O)(O)O)c(=O)c1CC(=O)O	syncytia		EC50	CEM	IIIB		≥300 µM
CCOC(=O)c1c(Br)c(-c2ccccc2)n(COCCOC(C)=O)c1-c1ccccc1	cytopathic effect / MTT		EC50	MT-4			>47 µM
C[C@H](Cn1cnc2c(N)ncnc21)OCP(=O)(O)O	luciferase		EC50	PBMC	NLAD8		0.005 µM
Cc1ncc(-c2ccc(OCC3CCC3)nc2)c(N2CCC(C)(C)CC2)c1[C@H](OC(C)(C)C)C(=O)O	luminescence		EC50	MT-2	NL4-3		0.0057 µM
Nc1ncnc2c1ncn2[C@H]1CC[C@@H](CO)O1			EC50	C8166	RF		2 µM
CCn1cc(C(=O)O)c(=O)c2cc(F)c(N3CCN(c4ccccc4OC)CC3)c(OC(F)F)c21	cytopathic effect / MTT		EC50	MT-4	ADP/141		0.3 µM
COc1cccc2c1nc(-c1ccccc1F)n2Cc1cccc(C)c1			EC50	MT-4	IIIB		0.019 µg/mL
Cc1cn([C@H]2C[C@H](N=[N+]=[N-])[C@@H](CO)O2)c(=O)[nH]c1=O	RT activity		EC90	PBMC			0.014 µM
CC(=O)OCCOCn1c(-c2ccccc2)c(Br)c(-c2ccccc2)c1-c1ccccc1	cytopathic effect / MTT		EC50	MT-4			>16 µM
C/C(=N\NC(=O)CN1c2c(-c3ccccc3)n[nH]c2-c2ccccc2S1(=O)=O)c1cc(C)cs1	RT activity		EC90	PBMC			>100 µM
CC1=C(COc2cc(Nc3nccs3)ccc2Cl)CCC1	cytopathic effect / MTT		EC50	MT-2	IIIB		>11 µM
CC1=C(C(=S)Nc2ccc(Cl)c(C(O)OC(C)C)c2)SCCS1			EC50				>5.2 µg/mL
O=[N+]([O-])c1ccc(NC(=S)Nc2nc3ccccc3s2)cc1	MTT		EC50	MT-4	IIIB		>100 µM
O=C(N[C@@H](Cc1ccccc1)C(=O)NCC[C@@H](CO)NC(=O)[C@H](Cc1ccccc1)NC(=O)OCC1c2ccccc2-c2ccccc21)OCC1c2ccccc2-c2ccccc21	p24		EC50	CEM	IIIB		0.11 µM
Nc1ncnc2c1ncn2[C@@H]1O[C@H](CO)[C@@H](O)[C@H]1C(F)(F)F			EC50				>100 µM
CCC(CC)Cn1c(-c2ccccc2F)nc2c(OC)cccc21			EC50	MT-4	IIIB		0.0024 µg/mL
Cc1ccc(OCCOc2ncc(-c3cnc(C)c([C@H](OC(C)(C)C)C(=O)O)c3N3CCC(C)(C)CC3)cc2F)cc1F	luminescence		EC50	MT-2	NL4-3		0.0015 µM
Cc1cc(C)cc(CNc2nc3cc(C(=O)NC(C)(CO)CO)ccc3n2C2CCCCCC2)c1	syncytia	20% FBS	EC50	H9			0.75 µM
CC(C)(C)NC(=O)[C@H]1CCCN1C(=O)CN(O)C(=O)[C@H](Cc1ccccc1)NC(=O)OCC1c2ccccc2-c2ccccc21	p24		EC50	CEM	IIIB		1.25 µM
Nc1nc(N)n(CCOCP(=O)(O)O)c(=O)c1-c1ccccc1	syncytia		EC50	CEM	IIIB		≥300 µM
CC(C)=CCOc1cc(Nc2nc(N)cc(Cl)n2)ccc1Cl	cytopathic effect / MTT		EC50	MT-2	IIIB		>0.014 µM
CC(C)(C)NC(=O)[C@H](Cc1ccccc1)NC(=O)CN(O)C(=O)[C@H](Cc1ccccc1)NC(=O)OCC1c2ccccc2-c2ccccc21	p24		EC50	CEM	IIIB		0.45 µM
COC(=O)c1cccc(Cn2ccc3ccc(-c4ccc5ccn(Cc6cccc(C(=O)O)c6)c5c4)cc32)c1	luciferase / cell fusion	pseudotyped	EC50	TZM-bl + HL2/3	HXB2		0.25 µM
C=CNc1nc(Nc2ccc(C#N)cc2F)nc(Oc2ccc3ccccc3c2Cl)n1	MTT		EC50	MT-4	IIIB		1.98 µM
O=[N+]([O-])c1cc(-c2ccccc2)n(COCCO)c1-c1ccccc1	cytopathic effect / MTT		EC50	MT-4			>46 µM
CCN(CC)CCCC(C)Nc1ccnc2cc(Cl)ccc12	p24		EC50	U-937			<100 µM
O=c1ccn([C@@H]2O[C@H](CO)[C@@H](O)[C@H]2C(F)(F)F)c(=O)[nH]1			EC50				>100 µM
Nc1nc(N)c(Cl)c(OCCOCP(=O)(O)O)n1	syncytia		EC50	CEM	IIIB		3.1 µM
COc1ccc(/C=N/N=C(\N)NO)cc1O.Cc1ccc(S(=O)(=O)O)cc1	cytopathic effect		EC50	CEM	IIIB		26 µg/mL
CCOCn1c(Sc2cccc(N)c2)cc(=O)[nH]c1=O	MTT		EC50	MT-4	NL4-3		0.4 µg/mL
Nc1ccn(C23C=C[C@@H](CO)[C@@H]2C3)c(=O)n1	MTT		EC50	MT-4	IIIB		>61.8 µg/mL
COc1cnc(C(N)=O)c2[nH]cc(C(=O)C(=O)N3CCN(C(=O)c4ccccc4)CC3)c12	luciferase		EC50	HeLa			≤0.0002 µM
Cc1cn([C@H]2C[C@H](N=[N+]=[N-])[C@@H](CO)O2)c(=O)[nH]c1=O	MTT		EC50	MT-4	IIIB	EFV-resistant	0.02 µM
CNC(=O)c1ncc(OC)c2c(C(=O)C(=O)N3CCN(C(=O)c4ccccc4)CC3)c[nH]c12	luciferase		EC50	HeLa			0.0002–1 µM
Cc1c(O)cccc1C(=O)N[C@@H](Cc1ccccc1)C(=O)N(O)[C@@H](Cc1ccccc1)C(=O)N1CCC[C@@H]1C(=O)NC(C)(C)C	p24		EC50	CEM	IIIB		0.63 µM
Nc1nc2c(ncn2[C@H]2CO[C@@H](CCP(=O)(O)O)O2)c(=O)[nH]1	cytopathic effect		EC50	MT-4			6.8 µg/mL
Cc1cn([C@H]2C[C@H](O)[C@@H](CO)O2)c(=O)n(C)c1=O	microscopy		EC50	CEM	IIIB		>400 µg/mL
CNc1nc(Nc2ccc(C#N)cc2F)nc(Oc2ccc(C)cc2)n1	MTT		EC50	MT-4	IIIB		2.884 µM
CC(=O)N1CCSC(C(=O)Nc2ccc(Cl)c(C(O)OC(C)C)c2)=C1C			EC50				25.7 µg/mL
CCOCn1c(Sc2ccccc2)cc(=O)[nH]c1=O	MTT		EC50	MT-4	NL4-3		0.025 µg/mL
CC(C)Nc1nc(Nc2ccc(C#N)cc2F)nc(Oc2ccc3ccccc3c2Br)n1	MTT		EC50	MT-4	IIIB		9.49 µM
CCCC(C(=O)O)c1c(C)nc2sc3c(c2c1C(C)(C)C)CCCC3	MTT		EC50	MT-4	IIIB		>131 µM
Clc1ccc(Nc2nccs2)cc1OCc1nccs1	cytopathic effect / MTT		EC50	MT-2	IIIB		>20 µM
O=C1CS/C(=N\c2nc3ccccc3s2)N1c1cccc(C(F)(F)F)c1	MTT		EC50	MT-4	IIIB		>67 µM
CNC(=O)c1ncc(OC)c2c(C(=O)C(=O)N3CCN(C(=O)c4ccccc4)[C@H](C)C3)c[nH]c12	luciferase		EC50	HeLa			≤0.0002 µM
COc1cccc2c1nc(-c1ccccc1F)n2CCC(C)C			EC50	MT-4	IIIB		0.0083 µg/mL
Cc1cn([C@@H]2O[C@H](CO)[C@@H](O)[C@@H]2O)c(=O)n(C)c1=O	microscopy		EC50	CEM	IIIB		>400 µg/mL
COc1cccc(Cn2c(-c3ccccc3F)nc3c(OC)cccc32)c1			EC50	MT-4	IIIB		0.032 µg/mL
CCCCNC(=O)c1ccc2c(c1)nc(NCc1cccc3ccccc13)n2C1CCCCCC1	syncytia	2% FBS	EC50	H9			0.6 µM
NC(=O)c1ncc(Cl)c2c(C(=O)C(=O)N3CCN(C(=O)c4ccccc4)CC3)c[nH]c12	luciferase		EC50	HeLa			≤0.0002 µM
CC(C)=CCOc1cc(Nc2ccccn2)ccc1C	cytopathic effect / MTT		EC50	MT-2	IIIB		>35 µM
COc1cnc(-n2cnc(C)n2)c2c1c(C(=O)C(=O)N1CCN(C(=O)c3ccccc3)CC1)cn2COP(=O)(O)O	luciferase		EC50	U-87	NL4-3	M426R	0.0011 µM
CC(C)OC(O)c1cc(NC(=S)C2=C(c3ccccc3)OCCS2)ccc1Cl			EC50				>8.4 µg/mL
Nc1nc(N)c(C2CC2)c(OCCOCP(=O)(O)O)n1	syncytia		EC50	CEM	IIIB		≥300 µM
CSCCC(NC=O)C(=O)NC(CC(C)C)C(=O)NC(Cc1ccccc1)C(=O)Nc1ccn([C@H]2CS[C@@H](CO)O2)c(=O)n1	syncytia		EC50	MT-4			8 µM
CC(C)OC(O)c1cc(NC(=O)C2=C(C(F)(F)F)OCCS2)ccc1Cl			EC50				11.3 µg/mL
Cc1ncc(-c2ccc(OCCC(C)(C)O)cn2)c(N2CCC(C)(C)CC2)c1[C@H](OC(C)(C)C)C(=O)O	luminescence		EC50	MT-2	NL4-3		0.0481 µM
OCCOCn1c(-c2ccccc2)c(Br)c(-c2ccccc2)c1-c1ccccc1	cytopathic effect / MTT		EC50	MT-4			>15 µM
CCN(Cc1cccc(C)c1)c1nc2cc(C(=O)NC(C)CO)ccc2n1C1CCCCCC1	syncytia	20% FBS	EC50	H9			>50 µM
Cc1ccc(Oc2nc(N)nc(Nc3ccc(C#N)cc3F)n2)cc1	MTT		EC50	MT-4	IIIB		1.078 µM
Cc1cccc(CNc2nc3cc(C(=O)NC(C)CO)ccc3n2C2CCCCCC2)c1C	syncytia	2% FBS	EC50	H9			3 µM
COc1ccc(/C=N/N=C(/N)NO)cc1OC	cytopathic effect		EC50	CEM	IIIB		19 µg/mL
CCOC(=O)c1c([N+](=O)[O-])c(-c2ccccc2)n(COCCO)c1-c1ccccc1	cytopathic effect / MTT		EC50	MT-4			>163 µM
C[C@H](Cn1cnc2c(N)ncnc21)OCP(=O)(O)O			EC50	TZM-bl		NL/2ATZ	7.5 µM
Cc1cccc(CNc2nc3cc(C(=O)NC(C)(CO)CO)ccc3n2C2CCCCCC2)c1	syncytia	20% FBS	EC50	H9			0.1 µM
C[C@H]1[C@H](O)[C@@H](C)/C=C/C=C/C=C/C=C/C=C/C=C/C=C/[C@H](O[C@@H]2O[C@H](C)[C@@H](O)[C@H](N)[C@@H]2O)C[C@@H]2O[C@](O)(C[C@@H](O)C[C@@H](O)CC[C@H](O)[C@@H](O)C[C@@H](O)CC(=O)O[C@H]1C)C[C@H](O)[C@H]2C(=O)O	p24 / RT activity		EC50	PBMC	MDR3761 Primary isolate X4 (SI)		1.6 µM
CC(C)=CCOc1cc(Nc2nccs2)ccc1C(C)C	cytopathic effect / MTT		EC50	MT-2	IIIB		>31 µM
O=[N+]([O-])c1c(-c2ccccc2)c(-c2ccccc2)n(COCCO)c1-c1ccccc1	cytopathic effect / MTT		EC50	MT-4			37 µM
Cc1ncc(-c2ccc(OCC3CCC(C)(C)CC3)cn2)c(N2CCC(C)(C)CC2)c1[C@H](OC(C)(C)C)C(=O)O	luminescence		EC50	MT-2	NL4-3		0.0033 µM
CC1=C(C(=O)Nc2ccc(Cl)c(C(O)OC(C)C)c2)SCCS1			EC50				>6.8 µg/mL
CC(NC(=S)Nc1nc2ccccc2s1)c1ccccc1	MTT		EC50	MT-4	IIIB	A17	>38 µM
Nc1ncnc2c1ncn2[C@H]1C[C@H](OCP(=O)(O)O)CO1	cytopathic effect / XTT		EC50	MT-2	IIIB		>200 µM
COc1cnc(-n2cc(C(F)(F)F)cn2)c2[nH]cc(C(=O)C(=O)N3CCN(C(=O)c4ccccc4)CC3)c12	luciferase		EC50	HeLa			<1 µM
Nc1nc(=O)n([C@@H]2CC[C@H](CO)O2)cc1F	p24		EC50	MT-4	RF		0.03 µM
Cc1ncc(-c2cnc(OC(C)C(C)OCc3ccccc3)c(F)c2)c(N2CCC(C)(C)CC2)c1[C@H](OC(C)(C)C)C(=O)O	luminescence		EC50	MT-2	NL4-3		0.0071 µM
COc1c[nH]c(=O)c2[nH]cc(C(=O)C(=O)N3CCN(C(=O)c4ccccc4)CC3)c12	luciferase		EC50	HeLa			0.0002–1 µM
N#Cc1ccc(Nc2nc(N)nc(Oc3ccc4ccccc4c3Cl)n2)c(F)c1	MTT		EC50	MT-4	IIIB		0.709 µM
COc1cccc2c1nc(-c1ccccc1F)n2CCC#N			EC50	MT-4	IIIB		>66 µg/mL
COC(COc1ccc(-c2cnc(C)c([C@H](OC(C)(C)C)C(=O)O)c2N2CCC(C)(C)CC2)nc1)C(C)C	luminescence		EC50	MT-2	NL4-3		0.0006 µM
CCNc1nc(Nc2ccc(C#N)cc2F)nc(Oc2ccc(C)cc2)n1	MTT		EC50	MT-4	IIIB		8.89 µM
Cc1cn([C@H]2C[C@H](F)[C@@H](CO)O2)c(=O)n(CCF)c1=O	microscopy		EC50	CEM	IIIB		50 µg/mL
C/C(=N\NC(=O)CN1c2c(-c3ccccc3)n[nH]c2-c2ccccc2S1(=O)=O)c1nccs1	RT activity		EC90	PBMC			>100 µM

a–b is a range or a potency band. Neighbouring rows are from separate reports. An empty or dashed field is not shown.